# In PubChem BioAssay AID602123 (The Scripps Research Institute Molecular Screening Center, 2011):
# Protein sequences, listed by entry. Tags and fused reporters are not part of them.
# UniProt P0A9M0, whole entry, looked up: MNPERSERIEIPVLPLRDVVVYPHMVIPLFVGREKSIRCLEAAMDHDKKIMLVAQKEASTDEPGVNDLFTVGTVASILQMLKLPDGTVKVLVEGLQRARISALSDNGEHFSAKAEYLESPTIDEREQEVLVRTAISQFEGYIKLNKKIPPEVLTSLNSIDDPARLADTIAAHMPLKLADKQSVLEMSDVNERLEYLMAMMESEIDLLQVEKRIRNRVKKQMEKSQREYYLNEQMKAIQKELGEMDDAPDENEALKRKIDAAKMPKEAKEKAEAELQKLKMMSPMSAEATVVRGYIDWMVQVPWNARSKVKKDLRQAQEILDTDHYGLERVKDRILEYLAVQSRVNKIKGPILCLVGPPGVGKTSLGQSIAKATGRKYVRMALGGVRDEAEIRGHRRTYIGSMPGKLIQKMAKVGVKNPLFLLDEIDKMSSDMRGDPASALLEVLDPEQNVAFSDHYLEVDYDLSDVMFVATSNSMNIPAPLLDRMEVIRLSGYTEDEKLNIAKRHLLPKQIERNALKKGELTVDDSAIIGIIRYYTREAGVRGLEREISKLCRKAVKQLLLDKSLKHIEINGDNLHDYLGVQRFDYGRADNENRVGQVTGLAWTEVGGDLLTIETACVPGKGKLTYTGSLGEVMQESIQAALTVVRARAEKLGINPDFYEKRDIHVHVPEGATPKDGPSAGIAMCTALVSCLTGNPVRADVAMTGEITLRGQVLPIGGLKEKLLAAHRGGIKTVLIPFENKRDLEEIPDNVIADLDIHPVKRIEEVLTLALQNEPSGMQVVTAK
# The entries are a selection whose mix differs from that of the whole data set. The source made the active and inactive calls. Cut-off read from the data, not from the text of the source: active = inhibition above about 13% (passing the limit was not always enough); inactive = the rest.
# Biological target: Lon protease (Escherichia coli (strain K12)) (UniProt P0A9M0)
# Assay: E. coli eLon protease inhibition – biochemical, fluorescence polarization, primary screen (AID 602123);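 note: 0% = enzyme with probe and DMSO and 100% = no enzyme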
# Settings: purified E. coli Lon protease, at 7.94 µM, stronger effect = higher value
row,Structure (SMILES),inhibition
1,CC(C)(C)C(=O)NC(Sc1ccccc1)C(Cl)(Cl)Cl (configuration not stated),inactive: 0.07%
2,CCOc1ccc(C2=NCC(CBr)S2)cc1 (configuration not stated),inactive: -4.52%
3,O=P1(Nc2nc3ccc(Cl)cc3s2)COc2ccccc2O1 (configuration not stated),inactive: -5.88%
4,CN(C)C(=O)Oc1noc2ccccc12,inactive: -3.44%
5,O=c1c2cc([N+](=O)[O-])ccc2[nH]c2c([N+](=O)[O-])cc([N+](=O)[O-])cc12,inactive: -7.66%
6,Cc1ccccc1OP(=O)(Nc1ccccn1)Oc1ccccc1C,inactive: -0.44%
7,CC(NC(=O)COC(=O)C(O)(c1ccccc1)c1ccccc1)c1ccccc1 (configuration not stated),inactive: -2.54%
8,Cc1ccc(OP(=O)(Nc2ccccn2)Oc2ccc(C)cc2)cc1,inactive: 5.85%
9,CC(=O)NC(SC(=S)N(CC(C)C)CC(C)C)C(Cl)(Cl)Cl (configuration not stated),inactive: -2.94%
10,COC(=O)c1cc2c(s1)N=C(c1ccccc1)N(C)P2(=O)N1CCOCC1 (configuration not stated),inactive: -3.04%
11,CCC(=O)N1C2C3N(C(=O)CC)C1C1N(C(=O)CC)C(C(N1C(=O)CC)N3C(=O)CC)N2C(=O)CC,inactive: -6.42%
12,O=C(OC1CN2CCC1CC2)c1ccccc1 (configuration not stated),inactive: 0.61%
13,O=P1(N(CCCl)CCCl)OCCC2CCCCN21 (configuration not stated),inactive: 3.54%
14,CCNC(=S)/N=C(\N)N[N+](=O)[O-],inactive: -0.05%
15,O=C(NC1CCS(=O)(=O)C1)NP(=S)(Oc1ccccc1)Oc1ccccc1 (configuration not stated),inactive: 3.31%
16,Cc1ccc(NP(=O)(Oc2cccc(C)c2)Oc2cccc(C)c2)nc1,inactive: -3.62%
17,c1ccc(-c2nn[nH]n2)c(-c2nn[nH]n2)c1,inactive: 4.96%
18,Nc1ccc([As](=O)(O)c2ccc([N+](=O)[O-])cc2)cc1,inactive: 3.45%
19,C(Cc1nn[nH]n1)Cc1nn[nH]n1,inactive: -8.29%
20,O=C(OC1CN2CCC1CC2)c1cccc(Cl)c1 (configuration not stated),inactive: -0.19%
21,O=[N+]([O-])c1ccc(O)c(/C=N/Nc2ccc([N+](=O)[O-])cc2[N+](=O)[O-])c1,inactive: -11.8%
22,O=[N+]([O-])c1ncn(CCn2cnc([N+](=O)[O-])n2)n1,inactive: -8.5%
23,CC(=O)NC(SC(=S)N(C)C)C(Cl)(Cl)Cl (configuration not stated),inactive: 4.95%
24,O=[As](O)(c1ccccc1)c1ccc(O)cc1,inactive: -8.44%
25,C[C@H]1OP(=O)(Oc2ccccc2)[C@H](O)[C@H](O)[C@H]1N=[N+]=[N-] (some centres not stated),inactive: 0.24%
26,O=P(Nc1nc2ccccc2s1)(c1ccccc1)c1ccccc1,inactive: -5.89%

row,Structure (SMILES),inhibition
1,Nc1ccc(CCCCOc2ccccc2)cc1,inactive: -3.67%
2,COc1ccc(N)c([N+](=O)[O-])c1[N+](=O)[O-],inactive: -10.4%
3,O=P(Nc1ccccn1)(c1ccc(Br)cc1)c1ccc(Br)cc1,inactive: 6.8%
4,CN(C)C1(CNC(=O)c2ccc(Cl)c(S(N)(=O)=O)c2)CCCCC1,inactive: -6.02%
5,c1nnnn1CCn1cnnn1,inactive: 1.36%
6,CC(C)C(=O)NC(Sc1ccccc1)C(Cl)(Cl)Cl (configuration not stated),inactive: -5.68%
7,O=P(Nc1nccs1)(c1ccccc1)c1ccccc1,inactive: -6.54%
8,CN(C)C(=O)OCCc1n(C)cc[n+]1C,inactive: 7.31%
9,CC(C)=N/N=C(\N)N[N+](=O)[O-],inactive: -8.73%
10,CC(C)c1nc(Nc2ccccc2)n(P(=O)(N(C)C)N(C)C)n1,inactive: -16.5%
11,c1cc(-c2nn[nH]n2)ccc1-c1nn[nH]n1,inactive: -8.9%
12,CC1CCN(C(=O)Oc2c(Cl)cc(Cl)c3cccnc23)CC1,inactive: -3.53%
13,C[N+]1=C2C=CC=CC=C2SC12C([N+](=O)[O-])=CC([N+](=O)[O-])=C[C-]2[N+](=O)[O-] (configuration not stated),inactive: 3.33%
14,Nc1ccc([As](=O)(O)c2ccc(N)cc2)cc1,inactive: 8.12%
15,CCN(/C(=N/P(=O)(N1CCOCC1)N1CCOCC1)N1CCOCC1)c1ccc(OC)cc1,inactive: 7.64%
16,O=[N+]([O-])c1cccc2n[nH]nc12,inactive: 0.79%
17,CC(=O)N1C2C3N(C(C)=O)C1C1N(C(C)=O)C(C(N1C(C)=O)N3C(C)=O)N2C(C)=O,inactive: -7.4%
18,CCc1nc2c(n1)c1c(non1O)c1c2no[n+]1[O-],inactive: -1.71%
19,O=[N+]([O-])c1cc([N+](=O)[O-])c(CCNc2ccccc2)c([N+](=O)[O-])c1,inactive: 1.88%
20,Cc1ccc(NP(=O)(Oc2ccccc2)Oc2ccccc2)nc1,inactive: -1.46%
21,COc1ccc(C2=NCC(CBr)S2)cc1 (configuration not stated),inactive: 11.8%
22,O=[N+]([O-])c1cccc(NC2=NCC(CBr)S2)c1 (configuration not stated),inactive: 2.5%
23,COC(=O)C1(C)COP(=O)(Nc2ccccc2)OC1 (configuration not stated),inactive: -14.3%
24,O=C(O)CNc1ccc([As](=O)(O)O)cc1,inactive: -5.25%
25,CC(C)(C)C(=O)NC(Sc1ccncn1)C(Cl)(Cl)Cl (configuration not stated),inactive: -16.9%
26,O=[N+]([O-])c1ncn(CCn2ncnc2[N+](=O)[O-])n1,inactive: 5.49%

row,Structure (SMILES),inhibition
1,O=C(Nc1cc([As](=O)(O)O)ccc1O)c1ccccc1,inactive: -0.58%
2,O=P1(N(CCCl)CCCl)OCCCS1 (configuration not stated),inactive: -4.61%
3,CCN(N=Nc1nonc1N)c1nonc1N,inactive: -12.9%
4,Nc1cccc2ccc([As](=O)(O)O)cc12,inactive: 11.2%
5,Cc1ccc(NP(=O)(Oc2ccccc2F)Oc2ccccc2F)nc1,inactive: 2.28%
6,CN(C(=O)Cc1ccc(Cl)c(Cl)c1)[C@H]1CCCC[C@@H]1N1CCCC1,inactive: 7.23%
7,CCOP(=O)(Nc1ccccc1)OCC,inactive: 2.42%
8,Cc1cc(SC(NC(=O)c2ccc(F)cc2)C(Cl)(Cl)Cl)ncn1 (configuration not stated),inactive: -9.27%
9,CCCC1OP(N)(=O)OCC1CC (configuration not stated),inactive: 1.79%
10,O=C(O)c1ccccc1[As](=O)(O)O,inactive: 6.44%
11,CC(=O)Nc1ccc([As](=O)(O)O)cc1,inactive: -10.2%
12,CN(C)P(=O)(N(C)C)n1c(Nc2ccccc2)nnc1-c1ccccc1,inactive: -0.6%
13,O=P(Nc1nc2ccc(Cl)cc2s1)(c1ccccc1)c1ccccc1,inactive: 0.45%
14,O=[N+]([O-])C1C(O)C(O)C([N+](=O)[O-])C(O)C1O (configuration not stated),inactive: 0.3%
15,CC(C)CC(=O)NC(Sc1ccc(Cl)cc1)C(Cl)(Cl)Cl (configuration not stated),inactive: -5.36%
16,Nc1cc(N)c2nonc2c1[N+](=O)[O-],inactive: 1.27%
17,O=C(NC(Sc1ccncn1)C(Cl)(Cl)Cl)c1ccccc1 (configuration not stated),inactive: -9.35%
18,Oc1ccccc1CNc1ccccn1,inactive: -0.18%
19,Cc1ccc(OP(=O)(Nc2nccs2)Oc2ccc(C)cc2)cc1,inactive: 15.2%
20,COc1ccccc1OP(=O)(Nc1ccc(C)cn1)Oc1ccccc1OC,inactive: -4.27%
21,Clc1ccc(Cl)c(NC2=NCC(CBr)S2)c1 (configuration not stated),inactive: 4.87%
22,CN1CCCC(OC(=O)C(c2ccccc2)c2ccccc2)C1 (configuration not stated),inactive: -3.66%
23,NC(=O)c1cc([N+](=O)[O-])cc([N+](=O)[O-])c1N,inactive: -6.25%
24,Cc1ccc(N/C(=N/P(=O)(N2CCOCC2)N2CCOCC2)N2CCOCC2)cc1,inactive: 12%
25,CN(C(=O)Cc1ccc(Cl)c(Cl)c1)[C@H]1CCCC[C@H]1N1CCCC1,inactive: -12.8%
